The record followed here is US20230374114A1, “Coronavirus antibodies and methods of use thereof” (Dana-Farber, published 2023).

One assay concerns the target P.1 Spike (SARS-CoV-2). Nature of the assay: biosensor, scFv-Fc loaded at 1 ug/ml, spike in solution at 48.3 nM.
The target in another assay is B.1.1.7 Spike (SARS-CoV-2). Nature of the assay: biosensor, scFv-Fc loaded at 1 ug/ml, spike in solution at 48.4 nM.
Another assay has as its target B.1.351 Spike (SARS-CoV-2). The assay can be described thus: biosensor, scFv-Fc loaded at 1 ug/ml, spike in solution at 48.5 nM.

Some results are limits rather than exact numbers.

B1: Ab_14 (scFv, V domains shown)
VH: QVQLQQSGPGLVKPSQTLSLTCAISGDSVSSNSAAWNWIRQSPARGLEWLGRTYYRSRWYNDYAISMKSRITINPDTSKNQFSLQLESVTPEDTAVYYCAREIRGFDYWGQGTLVTVSS
VL: QSVLTQPPSASGSPGQSVTISCTGTSSDVGAYNFVSWYQHHPGKAPKLIIYDFNKRPSGVPDRFSGSKSGNTASLTVSGLQADDEADYYCSSYAGSNNFDVVFGGGTKLTVL
notes: also called Ab 14 scFv-Fc
As to B1, the Kd was 9.75 pM with P.1 Spike, 7.98 pM with B.1.1.7 Spike and 3.1 pM with B.1.351 Spike. Further, the figures for the Response with P.1 Spike, with B.1.1.7 Spike and in the assay with B.1.351 Spike were 0.27, 0.355 and 0.253, respectively.

B2: Ab 20 (scFv, V domains shown)
VH: QVQLVQSGGGSVKPGGSLRLSCAASGYRLSDYYMHWVRQAPGKGLEWVANIKQDGSEKYYVDSVKGRFTISRDNAKNSLYLQMNSLRAEDTAVYYCARVRGWSRGYFDYWGQGTLVTVSS
VL: NFMLTQPHSVSESPGKTVTISCTGSSGSIASNYVQWYQQRPGSAPTTVIYEDNQRPSGVPDRFSGSIDSSSNSASLLISGLKTEDEADYYCQSYDSSNHWVFGGGTKLTVL
notes: also called Ab 20 scFv-Fc
With B2, the Kd with P.1 Spike was found to be 11.2 pM; in the assay with B.1.1.7 Spike it was 2.6 pM; with B.1.351 Spike, 7.03 pM. For the same molecule, the figures for the Response with P.1 Spike, in the assay with B.1.1.7 Spike and with B.1.351 Spike were 0.17, 0.173 and 0.213, respectively.

B3: Ab 21 (scFv, V domains shown)
VH: QVQLVQSGGGLVQPGGSLRLSCATSGFTFDDYAMHWVRQAPGKGLEWVSGISWNSGSIGYVDSVKGRFTISRDNRNNKVYLQMNNLRAEDTAVYYCARDWWGSIDHWGLGTLVTVSS
VL: QSALTQPRSVSGSPGQSVTISCTGTSSDVGGYDYVSWYQQHPGKAPKLIIYDVSKRPSGVPDRFSGSKSGNTASLTVSGLQAEDEADYYCSSYTSSSPVVFGGGTKLTVL
notes: also called Ab 21 scFv-Fc
For the molecule B3, the results for the Kd with P.1 Spike, with B.1.1.7 Spike and with B.1.351 Spike were 9.52 pM, 1.47 pM and 369 pM, respectively. The results for the Response with P.1 Spike, in the assay with B.1.1.7 Spike and with B.1.351 Spike were 0.103, 0.199 and 0.148, respectively.

B4: Ab_16 (scFv, V domains shown)
VH: QVQLVQSGGGVVQPGRSLRLSCAASGFTFSNYGMHWVRQAPGKGLEWVALIWERGSKKDYADSVKGRFTVSRDNSKNTLYLQMNSLRPEDTAVYFCAREGISMTGAEYFQHWGQGTLVTVSS
VL: QSVLTQPPSVSGSPGQRVTMSCTGSSSNIGAGYDVHWYQQVPGAAPRLLIYGTNNRPSGVPDRFSGSKSGTSASLTITGLQAEDEADYYCQSYDNSLTDPYVFGTGTKVTVL
notes: also called Ab 16 scFv-Fc
Consider B4, for which the Kd was 7.93 pM with P.1 Spike, 2.36 pM in the assay with B.1.1.7 Spike and below 1 pM with B.1.351 Spike. Further, the Response with P.1 Spike was determined as 0.35; with B.1.1.7 Spike, 0.388; with B.1.351 Spike it was 0.405.

B5: Ab_18 (scFv, V domains shown)
VH: EVQLVQSGGGVVQPGRSLRVSCAASGFSFSRYGMHWVRQAPGKGLEWVAFIRHDGSKKYYADSVEGRFTISRDNSRNTVSLEMNSLRGEDTAVYYCAKDGRLEAALDDWGQGTLVTVSS
VL: NFMLTQPHSMSGSAGKTVTVSCIRSSGSIANNFVQWYQQRPGSAPTTVIYEDNQRPSGVPDRFSGSIDSSSNSASLTISGLKTEDEADYYCQSYDSSNLVFGGGTRLTVL
notes: also called Ab 18 scFv-Fc
Regarding B5, the Kd with P.1 Spike stood at 2.97 pM; with B.1.1.7 Spike, 9.28 pM; with B.1.351 Spike, 1340 pM. In addition, the Response with P.1 Spike stood at 0.109; in the assay with B.1.1.7 Spike, 0.256; with B.1.351 Spike, 0.12.

B6: Ab_19 (scFv, V domains shown)
VH: EVQLVESGAEVKKPGESLKISCKGSGYSFTSYWIGWVRQMPGKGLEWMGIIYPGDSDTRYSPSFQGQVTISADKSISTAYLQWSSLKASDTAMYYCARRGDLDAFDIWGQGTMVTVSS
VL: QPGLTQPPAASGTPGQRVTVSCSGASANIGSNAVSWFKQFPETAPRLLISGNTHRPSGVPDRVSGSKSGTSASLTISGLQSDDEADYYCAAWDDSLNGYVFGSGTKVTVL
notes: also called Ab 19 scFv-Fc
As to B6, the Kd stood at 8.94 pM with P.1 Spike, 10.3 pM with B.1.1.7 Spike and 11.8 pM with B.1.351 Spike. The Response turned out to be 0.204 in the assay with P.1 Spike, 0.203 in the assay with B.1.1.7 Spike and 0.258 with B.1.351 Spike.

For orientation: Kd means a measure of binding affinity in units of concentration. Read a low Kd as tighter binding.
